According to patent publication US20250241944A1 (CALIFORNIA INSTITUTE OF TECHNOLOGY, priority 2023, published 2025):

test system: WT Pseudomonas aeruginosa UCBPP-PA14; test: Antibiotic treatment assay with viable plate counts (percent survival / log killing)

Compound | mechanism of antibiotic recalcitrance under hypoxic conditions
CC(C)(O/N=C(\C(=O)N[C@@H]1C(=O)N2C(C(=O)[O-])=C(C[n+]3ccccc3)CS[C@H]12)c1csc(N)n1)C(=O)O [ceftazidime] | O2-independent genetic resistance
O=C(O)c1cn(C2CC2)c2cc(N3CCNCC3)c(F)cc2c1=O [ciprofloxacin] | hypoxia-induced tolerance
NC[C@H]1O[C@H](O[C@H]2[C@H](O)[C@@H](O[C@H]3O[C@H](CO)[C@@H](O)[C@H](N)[C@H]3O)[C@H](N)C[C@@H]2N)[C@H](N)C[C@@H]1O [tobramycin] | hypoxia-induced tolerance
colistin | O2-independent genetic resistance
